Reference: patent publication US10682388B2, “Targeting of PELP1 in cancer therapy” (THE BOARD OF REGENTS OF THE UNIVERSITY OF TEXAS SYSTEM, priority 2014, dated 2020)

Tested on: ZR75 cells
Assay: Cellular uptake assay with FITC-labeled peptide, confocal microscopy
Assay type: cell-based, Human
Details: 10 uM FITC labeled peptide, FIG. 1C

With GRKKRRQRRRGGMVEFRWSCPGRRKAKA [PIP1] the “time at which peptide enters the cell membrane” value was 30 min and the “time by which peptide enters the nucleus” value was no more than 120 min.
